Laboratory results as given in patent US20090221500A1 (ANGELICA THERAPEUTICS, published 2009).

Biological target: elongation factor-2 (EF-2) (rabbit (reticulocyte lysate))
Assay: cell-based or functional assay

B1: DT382 (G53E): Null construct (enzyme)
chain: not shown
For B1, the “IC50 (ng/12.5 µl), inhibition of protein synthesis in IVTT” value was 46.6 ng/12.5 µl.
